Compound potency records, mixed from different reports. Data source: NIAID ChemDB in PubChem.

Common to all: tests in culture; species: HIV-1

Lines come from different laboratories, so protocols vary.

SMILES	mutations	read by	cells	strain	endpoint	value
C[C@H]1CO[C@@H]2Cn3cc(C(=O)NCc4ccc(F)cc4F)c(=O)c(O)c3C(=O)N12		RT activity	CBMC	NL4-3	EC50	0.00056 µM
COc1ccccc1C(=O)N(C)c1ccc(Cl)c(C(=O)OC(C)C)c1		cytopathic effect / XTT	CEM + CEM-SS	RF	EC50	>100 µM
CCOP(=O)(OCC)OC[C@@H]1CC[C@H](n2cnc3c(N)nccc32)O1		syncytia	MT-4	IIIB	EC90	25 µM
Cc1nc2c(c(C)c(C)n2C(C)C)c(-c2ccc(Cl)cc2)c1C(OC(C)(C)C)C(=O)O		MTT	MT-4	IIIB	EC50	0.079 µM
O=C(NCCO)c1[nH]c2ccc(Cl)cc2c1Sc1ccccc1		cytopathic effect / MTT	C8166	IIIB	EC50	0.05 µM
O=C(O)c1cn(-c2ccccc2N2CCOCC2)c2cc(N3CCN(c4ccccc4)CC3)c(F)cc2c1=O		syncytia	PBL		EC50	0.3 µM
Cc1occc1C(=S)Nc1ccc(Cl)c(C(=O)OCC2CC2)c1	RT-K103N	cytopathic effect / XTT	CEM + CEM-SS	NL4-3	EC50	1.4 µM
Nc1ncnc2c1ncn2[C@@H]1C=C[C@H](OCP(=O)(O)O)O1		cytopathic effect	MT-2	WT	EC50	5.9 µM
COC1=C(C)C(=O)C(C)(C)C(=O)C1(O)OC(=O)/C=C/c1ccccc1		MTT	C8166		EC50	25.91 µM
CC=CCOc1cc(NC(=S)c2ccoc2C)ccc1OC	RT-K103N	cytopathic effect / XTT	CEM + CEM-SS	NL4-3	EC50	3.2 µM
Cc1ccc(C)c(C(Cc2ccccc2)S(=O)(=O)c2cccc[n+]2[O-])c1		syncytia	CEM	IIIB	EC50	>4 µg/mL
COc1ccc(N2CCN(c3c(F)cc4c(=O)c(C(=O)O)cn(-c5cccc(N6CCOCC6)c5)c4c3Cl)CC2)cc1		syncytia	PBL		EC50	0.35 µM
COc1ccc(CS(=O)(=O)c2cc(C(C)(C)C)cc[n+]2[O-])cc1		syncytia	CEM	IIIB	EC50	>20 µg/mL
Cc1ccc(S(=O)(=O)c2c(C(=O)NNCCO)[nH]c3ccc(Cl)cc23)cc1		cytopathic effect / MTT	MT-4	IIIB	EC50	0.04 µM
CC1=C(C(=O)Nc2ccc(Cl)c(C(=O)OC(C)C)c2)SCCO1		cytopathic effect / XTT	CEM + CEM-SS	RF	EC50	0.29 µM
Cc1ccnc2c1NC(=O)c1cccnc1N2C1CC1		luciferase	TZM-bl	NL4-3	EC50	0.06805 µM
COc1ccc(S(=O)(=O)N(CC(C)C)C[C@@H](O)CCN(CC2CCCC2)S(=O)(=O)C2CCCS(=O)(=O)C2)cc1		p24	CEM	IIIB	EC90	1 µM
Cc1ccc(C)c(C(CO)S(=O)(=O)c2ccccn2)c1		syncytia	CEM	IIIB	EC50	>100 µg/mL
Cc1cc(C)cc(S(=O)(=O)c2c(C(=O)/C=C/C(N)=O)[nH]c3ccc(Cl)cc23)c1	RT-Y181C	cytopathic effect / MTT	MT-4		EC50	0.6 µM
Cc1cc(C)cc(S(=O)(=O)c2c(C(=O)NCCO)[nH]c3ccc(Cl)cc23)c1	RT-K103N Y181C	cytopathic effect / MTT	MT-4		EC50	0.3 µM
COc1ccc(CS(=O)(=O)c2cccc[n+]2[O-])cc1OC		syncytia	CEM	IIIB	EC50	≥20 µg/mL
Nc1nccc2c1ncn2[C@H]1CC[C@@H](CO)O1		syncytia	MT-4	IIIB	EC90	>200 µM
CC(C)(C)OC(=O)NCC(=O)NCCN1CCC(NC(=O)C(=O)Nc2ccc(Cl)cc2)CC12CCCCC2		single cycle	TZM-bl	YTA	EC50	5.8 µM
CC(=O)c1ccc(C)cc1NC(C(N)=O)c1c(Cl)cccc1Cl		cytopathic effect / MTT	MT-4	RF	EC50	0.015 µM
COc1cc(Cn2c(C)c(C)c3c(-c4ccc(Cl)cc4)c(C(OC(C)(C)C)C(=O)O)c(C)nc32)cc(Cl)n1		MTT	MT-4	IIIB	EC50	0.111 µM
NC(N)=NCC(=O)NCCN1CCC(NC(=O)C(=O)Nc2ccc(Cl)cc2)CC12CCCCC2		single cycle	TZM-bl	YTA	EC50	2.6 µM
Cc1ccc(Sc2c(C(=O)NNCCO)[nH]c3ccc(Cl)cc23)c(C)c1		cytopathic effect / MTT	C8166	IIIB	EC50	0.7 µM
O=C(N[C@@H](Cc1ccccc1)C(=O)N1CCC(=O)C1Sc1ccccc1)c1ccc2ccccc2n1		syncytia	MT-4		EC50	>50 µM
CC1=C(O[C@H](CC(=O)O)c2ccccc2)C(=O)C(C)(C)C1=O		MTT	C8166		EC50	18.73 µM
Cc1ccc(Sc2c(C(=O)NCCO)[nH]c3ccc(Cl)cc23)cc1		cytopathic effect / MTT	C8166	IIIB	EC50	0.04 µM
COc1cccnc1SCc1ccccc1		syncytia	CEM	IIIB	EC50	21 µg/mL
O=C(Nc1ccc(Cl)cc1)C(=O)NC1CC2(CCCCC2)NC2(CCCCC2)C1		single cycle	TZM-bl	YTA	EC50	9 µM
CCn1c(C)c(C)c2c(-c3ccc(OC)cc3)c(C(OC(C)(C)C)C(=O)O)c(C)nc21		MTT	MT-4	IIIB	EC50	0.03298 µM
Cc1ccc(C)c(CS(=O)c2ncccc2O)c1		syncytia	CEM	IIIB	EC50	40 µg/mL
O=C(O)c1cn(-c2cccc(N3CCOCC3)c2)c2cc(N3CCN(c4ccccc4)CC3)c(F)cc2c1=O		syncytia	PBL		EC50	0.45 µM
CCN1c2ncc(CCOc3ccc(C(=O)N4CCC(C(=O)O)CC4)cc3C)cc2C(=O)N(C)c2cccnc21		p24	C8166	IIIB	EC50	0.01–0.05 µM
Cc1ccc[n+]([O-])c1SC(C)c1ccccc1		syncytia	CEM	IIIB	EC50	>20 µg/mL
CCN1c2ncc(CCOc3ccc(-c4ccc(C)[n+]([O-])c4)cc3C)cc2C(=O)N(C)c2cccnc21		p24	C8166	IIIB	EC50	<0.01 µM
CC(C)(C)OC(=O)N[C@@H](Cc1ccc(O)cc1)C(=O)N1CCC(=O)[C@@H]1Sc1ccccc1		syncytia	MT-4		EC50	50 µM
CCN1c2ncc(CCOc3ccc(Nc4nc(C(=O)O)cs4)cc3C)cc2C(=O)N(C)c2cccnc21		p24	C8166	IIIB	EC50	<0.01 µM
Cc1cc(C)cc(S(=O)(=O)c2c(C(N)=O)[nH]c3c(Cl)cc(Cl)cc23)c1		cytopathic effect / MTT	MT-4	IIIB	EC50	1.6 µM
NC(=O)c1[nH]c2ccc(Cl)cc2c1S(=O)(=O)c1ccccc1		cytopathic effect / MTT	C8166	IIIB	EC50	0.003 µM
Cc1ccc(Cl)c(C(C)S(=O)c2cccc[n+]2[O-])c1		syncytia	CEM	IIIB	EC50	>0.16 µg/mL
C=CCO/N=C/c1cc(NC(=S)c2ccoc2C)ccc1Cl	RT-K103N	cytopathic effect / XTT	CEM + CEM-SS	NL4-3	EC50	6.8 µM
Cc1ccc(C)c(C(CC(=O)O)S(=O)(=O)c2cccc[n+]2[O-])c1		syncytia	CEM	IIIB	EC50	>20 µg/mL
C#CCn1c(C)c(C)c2c(-c3ccc(Cl)cc3)c(C(OC(C)(C)C)C(=O)O)c(C)nc21		MTT	MT-4	IIIB	EC50	0.0296 µM
Cc1occc1C(=S)Nc1ccc(Cl)c(/C=N/OC(C)(C)C)c1	RT-D67N K70R Y181C T215Y K219Q	cytopathic effect / XTT	CEM + CEM-SS	4XAZT/Y181C (RT D67N K70R Y181C T215Y K219Q)	EC50	0.2 µM
CC(C)CCC[C@@H](C)[C@H]1CCC2C3CCC4C[C@@H](O[C@H]5O[C@H](COS(=O)(=O)[O-])[C@@H](OS(=O)(=O)[O-])[C@H](OS(=O)(=O)[O-])[C@@H]5O[C@H]5O[C@H](COS(=O)(=O)[O-])[C@@H](OS(=O)(=O)[O-])[C@H](O[C@H]6O[C@H](COS(=O)(=O)[O-])[C@@H](OS(=O)(=O)[O-])[C@H](O[C@H]7O[C@H](COS(=O)(=O)[O-])[C@@H](OS(=O)(=O)[O-])[C@H](OS(=O)(=O)[O-])[C@@H]7OS(=O)(=O)[O-])C6OS(=O)(=O)[O-])[C@@H]5OS(=O)(=O)[O-])CC[C@]4(C)C3CC[C@@]21C		p24 / ELISA / antigen	PBMC	HI05-91 isolate (R5)	EC50	52 µg/mL
N=C(N)N1CCC(NC(=O)C(=O)Nc2ccc(Cl)cc2)CC12CCCCC2		single cycle	TZM-bl	YTA	EC50	13 µM
CC(Cl)(c1ccccc1)S(=O)(=O)c1cccc[n+]1[O-]		syncytia	CEM	IIIB	EC50	>4 µg/mL
O=S(=O)(c1ccccc1)N(CC(O)CN(CC1CCCC1)S(=O)(=O)c1ccc(O)cc1)CC1CCCC1		p24	CEM	IIIB	EC50	<1 µM
CCN1c2ncc(CCOc3ccc(-c4cn(C)cn4)cc3C)cc2C(=O)N(C)c2cccnc21		p24	C8166	IIIB	EC50	<0.01 µM
Cc1cccc(CS(=O)c2cccc[n+]2[O-])c1		syncytia	CEM	IIIB	EC50	≥20 µg/mL
Cc1nc2c(c(C)c(C)n2CC2CC2)c(-c2ccc(Cl)cc2)c1C(OC(C)(C)C)C(=O)O		MTT	MT-4	IIIB	EC50	0.033 µM
CC(C)(C)OC(=O)NCCCCC(=O)NCCN1CCC(NC(=O)C(=O)Nc2ccc(Cl)cc2)CC12CCCCC2		single cycle	TZM-bl	YTA	EC50	11 µM
O=C(NCCO)c1[nH]c2ccc(Cl)cc2c1S(=O)(=O)c1ccccc1		cytopathic effect / MTT	MT-4	IIIB	EC50	0.001 µM
O=S(=O)(Cc1c(Cl)ccc(Cl)c1Cl)c1cccc[n+]1[O-]		syncytia	CEM	IIIB	EC50	≥4 µg/mL
O=C(c1ccccc1)N(CCc1ccccc1)C[C@H](O)CN(CC1CCCC1)S(=O)(=O)C1CCCCC1		p24	CEM	IIIB	EC90	1 µM
Cc1ccsc1C(=S)Nc1ccc(Cl)c(/C=N/OC(C)(C)C)c1		cytopathic effect / XTT	CEM + CEM-SS	IIIB	EC50	0.1 µM
O=[N+]([O-])c1ccc(SCc2ccccc2)nc1		syncytia	CEM	IIIB	EC50	>20 µg/mL
NC(=O)[C@H](Nc1ccccc1[N+](=O)[O-])c1c(Cl)cccc1Cl		cytopathic effect / MTT	MT-4	IIIB	EC50	1.7 µM
C[C@@H]1CCO[C@H]2Cn3cc(C(=O)NCc4ccc(F)cc4F)c(=O)c(O)c3C(=O)N12	R263K	luciferase	TZM-bl	NL4-3	EC50	0.0022 µM
COc1ccccc1N1CCN(c2c(F)cc3c(=O)c(C(=O)O)cn(-c4cccc(N5CCOCC5)c4)c3c2Cl)CC1		syncytia	PBL		EC50	0.5 µM
COc1ccc(S(=O)(=O)N(Cc2ccccc2)CC(F)(F)C(=O)[C@@H](Cc2ccccc2)NC(=O)OC2COCOC2)cc1		p24	CEM	IIIB	EC50	<1 µM
CC(C)(C)OC(=O)N[C@@H](Cc1ccc(OCc2ccccc2)cc1)C(=O)N1CCC(=O)[C@H]1Sc1ccccc1		syncytia	MT-4		EC50	0.1 µM
COc1cc2c(OC3OC(C)C(OC4OC(CO)C(O)C(O)C4O)C(O)C3OC(C)=O)c3c(c(-c4ccc5c(c4)OCO5)c2cc1OC)C(=O)OC3		p24 / ELISA	PBMC	SF162	EC50	0.014 µM
Cc1ccccc1C(c1ccccc1)S(=O)(=O)c1cccc[n+]1[O-]		syncytia	CEM	IIIB	EC50	>20 µg/mL
CCCCN1C(=O)N(Cc2ccc3[nH]nc(N)c3c2)[C@H](Cc2ccccc2)[C@H](O)[C@@H](O)[C@H]1Cc1ccccc1	PR-V82F I84V	plaque count	MT-2		EC50	<1.79 µM
c1ccc(COc2cccnc2SCc2ccccc2)cc1		syncytia	CEM	IIIB	EC50	>4 µg/mL
COc1ccc(S(=O)(=O)N(CC(C)C)C[C@@H](O)CCN(CC2CCCC2)S(=O)(=O)c2cc(C(C)(C)C)cc3[nH]cnc23)cc1		p24	CEM	IIIB	EC50	<1 µM
CN(C)c1ccnc(SCc2ccc(Cl)cc2)c1C#N		syncytia	CEM	IIIB	EC50	>20 µg/mL
Cc1occc1C(=S)Nc1ccc(Cl)c(C(=O)OC(C)C)c1	RT-K101E	cytopathic effect / XTT	CEM + CEM-SS	NL4-3	EC50	0.7 µM
N#CC(c1ccc(F)cc1)S(=O)c1cccc[n+]1[O-]		syncytia	CEM	IIIB	EC50	>0.16 µg/mL
COc1ncc(OC)c2c(C(=O)C(=O)N3CCN(C(=O)c4ccccc4)CC3)c[nH]c12		RT activity	MT-2	LAI	EC50	0.0041 µM
Cc1cc(C)cc(Sc2c(C(=O)NCCO)[nH]c3ccc(Cl)cc23)c1		cytopathic effect / MTT	MT-4	IIIB	EC50	0.012 µM
CCCCCCCCOc1ccc(/C=C(/C#N)Sc2cccc[n+]2[O-])cc1		syncytia	CEM	IIIB	EC50	>20 µg/mL

9 of the rows above, restated:

| SMILES | mutations | read by | cells | strain | endpoint | value |
|---|---|---|---|---|---|---|
| COc1ccccc1N1CCN(c2c(F)cc3c(=O)c(C(=O)O)cn(-c4cccc(N5CCOCC5)c4)c3c2Cl)CC1 |  | syncytia | PBL |  | EC50 | 0.5 µM |
| CCn1c(C)c(C)c2c(-c3ccc(OC)cc3)c(C(OC(C)(C)C)C(=O)O)c(C)nc21 |  | MTT | MT-4 | IIIB | EC50 | 0.03298 µM |
| N#CC(c1ccc(F)cc1)S(=O)c1cccc[n+]1[O-] |  | syncytia | CEM | IIIB | EC50 | >0.16 µg/mL |
| Cc1ccccc1C(c1ccccc1)S(=O)(=O)c1cccc[n+]1[O-] |  | syncytia | CEM | IIIB | EC50 | >20 µg/mL |
| NC(=O)c1[nH]c2ccc(Cl)cc2c1S(=O)(=O)c1ccccc1 |  | cytopathic effect / MTT | C8166 | IIIB | EC50 | 0.003 µM |
| Cc1ccc(Cl)c(C(C)S(=O)c2cccc[n+]2[O-])c1 |  | syncytia | CEM | IIIB | EC50 | >0.16 µg/mL |
| Cc1occc1C(=S)Nc1ccc(Cl)c(C(=O)OCC2CC2)c1 | RT-K103N | cytopathic effect / XTT | CEM + CEM-SS | NL4-3 | EC50 | 1.4 µM |
| CCCCN1C(=O)N(Cc2ccc3[nH]nc(N)c3c2)[C@H](Cc2ccccc2)[C@H](O)[C@@H](O)[C@H]1Cc1ccccc1 | PR-V82F I84V | plaque count | MT-2 |  | EC50 | <1.79 µM |
| CC(C)(C)OC(=O)NCC(=O)NCCN1CCC(NC(=O)C(=O)Nc2ccc(Cl)cc2)CC12CCCCC2 |  | single cycle | TZM-bl | YTA | EC50 | 5.8 µM |

Two numbers with a dash give a range or band. Blank or dashed fields: not listed here. ECn: concentration that inhibits the pathogen or its effect by n%.